The source of these data is patent publication US20110129816A1 (NATIONAL UNIVERSITY CORPORATION UNIVERSITY OF TOYAMA, published 2011).

To fix the notation:
B1: human anti-influenza B virus nucleoprotein monoclonal antibody 23G327 (antibody, V domains shown)
VH: QVQLVQSGAEVKRPGASVKVSCKASGYNLIDFYVNWVRQVPGQGLEWMGYINPDSGGAHYEGKFQGRVIMTRDTSINTAYMELPSLTSDDTAVYFCARGASSGLLTYYYGLDVWGEGTTVIVSS
VL: DIQMTQSPSSLSASIGDRVTITCRASPGINSYLAWYQHKPGKAPKLLIYAASTLQSGVPSRFSGSGSGTDFTLTISSLQPEDVATYYCQKYNSAPWTFGPGTKVEIK
notes: also called 23G327 antibody
B2: human anti-influenza A virus nucleoprotein monoclonal antibody 23G285 (antibody, V domains shown)
VH: QVQLVQSGGGVVQPGRSLRLSCAASGFTFSRYGMHWVRQAPGKGLEWVAVILYEGINKDYADSVKGRFTISRDNSKNTLYLQMNSLRAEDTAVYYCARDRELRLDYWGQGTLVTVSS
VL: QSVLTQPPSVSGAPGQRVTFSCTGSSSNIGAGYDVNWYQQLPGTAPKVLIYGNTNRPSGVPDRFSASKSGTSASLAITGLQAEDEADYYCQSYDSSLRGYVFGTGTKVSVL
notes: also called 23G285 antibody
B3: human anti-influenza A virus nucleoprotein monoclonal antibody 23G447 (antibody, V domains shown)
VH: QVQLQESGPGLVKPSQTLSLTCSVSGGSISNPDHYWNWIRQPPGKGLEWIGYIYYTGRTWYSPSLKSRVSLSVDTSKSQFSLNVDSVIAADTAVYYCARSHVWFGELYWGQGALVTVSS
VL: QSVLTQPPSVSAAPGQKVTISCSGRSSNVGDNYVSWYQQFPGTAPKLLIYDNTKRPSGIPDRFSGSKSGTSATLGITGLQTGDEAAYYCATWDSVLSAGVFGGGTKLTVL
notes: also called 23G447 antibody
B4: human anti-influenza A virus nucleoprotein monoclonal antibody 23G272 (antibody, V domains shown)
VH: QVQLVQSGAEVKKPGSSVKVSCKATGDTFSSYSISWVRQAPGQGLEWMGRVTPSFGISLYAQKFQGRVTITADRSSSTAYMELNNLTSDDTAVYYCAAGGLVVVVANHWGQGTLVTVSS
VL: EIVLTQSPATLSASVGDRVTITCRASQDITSSLGWYQQRAGEAPKLLLFAASRLESGVPSRFSGSGSGTEYTLTISNLQPEDFATYYCLHYFGSRPWTFGQGTKVEIKR
notes: also called 23G272 antibody
B5: human anti-influenza A virus nucleoprotein monoclonal antibody 23G494 (antibody, V domains shown)
VH: QVQLVQSGGGLVKPGGSLRLSCAGSGFSFSDYYMTWIRQAPGKGLEWVSSINSGSTVTNYADSVQGRFTISRDKNSVYLQMNSLRTEDTAVYYCARDFGIKAGTSDYWGQGTLVTVSS
VL: DIQMTQSPSSLSASVGDRVTITCRASQTISNFLNWYQQKPGKAPKLLIYAASRLQSWVPSRFTGSGSGTDFALTISSLQPEDFATYYCQQTFSPRITFGPGTKVEMKR
notes: also called 23G494 antibody
B6: human anti-influenza A virus nucleoprotein monoclonal antibody 23G268 (antibody, V domains shown)
VH: QVQLVQSGAVVKKPGDSVKVSCKASGYTFTTYWMHWVRQAPGQGPEWMGIVNPTGGTVMYAKKFQGRVIMTRDTSTTTVFLQLNGLESEDTAIYYCARDLGPARVDFDWLSTFVSWGQGTLVTVSS
VL: DIQMTQSPSSLSASVGDRVIITCRASQGITRHLNWYQQKSGKAPKLLIYDASSLQSGVPSRFSGSGSGADFTLTISSVQPEDFATYYCQQSYSNPPTFGPGTKVDIKR
notes: also called 23G268 antibody
B7: human anti-influenza A virus nucleoprotein monoclonal antibody 23G312 (antibody, V domains shown)
VH: QVQLVQSGGGLVQPGRSLRLSCIASGFSFDDYAMHWVRQIPGKGLEWVSGISWNSGARGYADSVKGRFTISRDNAKNSLYLQMNSLRVGDTAFYYCARDMGAGPNDYDTSGNYPLHLYGMDVWGHGTTVTVSS
VL: EIVLTQSPATLSVSPGDRATLSCRASQSVSDKLAWYQQKPGQAPRLLIYGAYTRATGTPARFSGSGSGTEFTLSITGLQAEDFAIYYCHQYNNWPLTFGGGTKVDIK
notes: also called 23G312 antibody

The target of the first assay is T1, nucleoprotein of influenza virus A/Texas/1/77 (H3N2) (influenza A virus A/Texas/1/77 (H3N2), UniProt P18072 1-498). As to the kind of experiment: same-clone sandwich CLIA.
B1: the binding result is given as “no binding (tested: S/N<2.1)”.

Another assay addresses T1, nucleoprotein of influenza virus …. As to the kind of experiment: same-clone sandwich CLIA. The source holds these as a separate data set.
With B2, the binding result is given as “binds”.
Still for that read-out and setting: under B3 stands “binds”; under B4, “binds”; under B5, “binds”.
Still for that read-out and setting: under B6 stands “binds”.
Still for that read-out and setting: for B7 the value was “binds”.
